In publication PMC4063720:
Construct, isoform or probe ends are uncertain for at least one entry. At least one verdict was read from the data and is not stated in words by the source.

Amino acid sequences for entries named in this document (tags omitted). A change or cut given only in a name is not applied to a line headed by its entry.
UniProt Q9HUM0: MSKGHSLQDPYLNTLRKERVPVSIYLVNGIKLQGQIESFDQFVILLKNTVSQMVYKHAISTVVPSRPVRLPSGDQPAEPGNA

Biological target: Hfq (Pseudomonas aeruginosa PAO1) (UniProt Q9HUM0)
Experiment: competition with a labelled probe
Details: unlabelled amiE -134-+20 vs 10 nM labelled amiE -134-+20, 20-fold Hfq-hexamer; EMSA: 10 mM Tris-HCl pH 8.0, 10 mM MgCl2, 60 mM NaCl, 10 mM NaH2PO4, 10 mM DTT, 25 ng tRNA in 10 ul, 37 C 30 min; 4% PAGE in Tris-borate; recombinant protein; residues 1-82; label: 5'-32P (EMSA); probe letters rebuilt from the primers and the genome

“GAUCAGGUCGUGCGCAUCAGCGUCGAUGUCGCGGGACCGAACCUAACGCAUACGUACAGAGCAAAUGGGCUCUCCCGGGGUUACCCGGGAGGGCCUUUUUUCGUCCCGAAAAAAUAACAACAAGAGGUGAUAUCCAUGCGUCACGGCGAUAUUUCCUGCAGAAAAAA [amiE -134-+20 RNA]”: binds.
